Assay results published in publication PMC3359404.

Legend:
Experiment in all cases: purified protein
Details in all cases: 10 mM pyruvate, 0.3 mM NADPH, 150 mM PIPES pH 6.6, room temperature
N=C(N)NCCC[C@H](N)C(=O)O = system: N=C(N)NCCC[C@H](N)C(=O)O
NCC(=O)O = system: NCC(=O)O
NCCCC[C@H](N)C(=O)O = system: NCCCC[C@H](N)C(=O)O

Q: What does the source list for “Ocs (His6-Ocs), octopine synthase (Agrobacterium tumefaciens (strain 15955))”?
A: Km (N=C(N)NCCC[C@H](N)C(=O)O): 3500 ± 300 µM; kcat (N=C(N)NCCC[C@H](N)C(=O)O): 12 s⁻¹; kcat/Km (N=C(N)NCCC[C@H](N)C(=O)O): 3500 M⁻¹ s⁻¹; kcat (NCC(=O)O): 21.7 s⁻¹; Km (NCCCC[C@H](N)C(=O)O): 740 ± 80 µM; kcat (NCCCC[C@H](N)C(=O)O): 2.17 s⁻¹; kcat/Km (NCCCC[C@H](N)C(=O)O): 2970 M⁻¹ s⁻¹
